Fitness effects across NS2B and the NS3 protease domain of Zika virus

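Mutant virus pools were grown in human Huh-7.5 cells. Deep sequencing gave the change in frequency of each mutant relative to wild type, averaged over three replicate libraries (two for positions 207-308). The aim was to find sites where inhibitor-binding pockets cannot change.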

Protein: NS2B and the protease part of NS3 of Zika virus strain MR766. Positions count along the chain below; NS2B spans 2-131 and NS3 starts at 132.
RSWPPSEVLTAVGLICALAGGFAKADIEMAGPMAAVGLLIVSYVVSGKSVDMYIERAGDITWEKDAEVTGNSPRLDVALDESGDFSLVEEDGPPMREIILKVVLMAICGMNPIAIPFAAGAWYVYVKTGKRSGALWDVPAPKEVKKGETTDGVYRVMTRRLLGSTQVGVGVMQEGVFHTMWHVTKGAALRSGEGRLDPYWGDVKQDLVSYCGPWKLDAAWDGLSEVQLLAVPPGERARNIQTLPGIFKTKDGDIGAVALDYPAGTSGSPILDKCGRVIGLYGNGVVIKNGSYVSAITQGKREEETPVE

The number is log2 of the effect relative to wild type; negative values mean reduced growth, higher values better tolerance.
Each line gives the wild-type residue and site, then new residues with their values.
Six mutants with high scores were retested singly and none clearly outgrew wild type, so positive values are not proof of better growth.
Stop codons (*) centre on -7 and mark the level of dead virus.
Position 1 still belongs to NS2A. In the paper, -1 or higher counts as tolerated.
Positions 1-103, 104-206 and 207-308 were made and measured as separate libraries.

D202: * -7.50; A -2.58; C -0.70; E -1.17; F -5.69; G -6.69; H -1.96; I -5.73; K -5.53; L -6.84; M -5.33; N -0.79; P -6.33; Q -5.31; R -6.81; S 0.49; T -4.27; V -6.25; W -5.61; Y -4.15
V203: * -8.46; A -7.76; C -2.90; D -6.37; E -6.91; F -6.24; G -8.29; H -6.35; I -1.55; K -6.71; L -8.26; M -5.68; N -6.38; P -7.76; Q -6.84; R -8.30; S -8.28; T -6.99; W -7.13; Y -6.35
K204: * -8.62; A -7.77; C -6.93; D -7.05; E -6.40; F -7.02; G -8.02; H -7.33; I -7.21; L -8.36; M -5.76; N -6.49; P -7.57; Q -6.87; R -0.18; S -8.49; T -8.02; V -7.85; W -7.03; Y -7.20
Q205: * -7.15; A -7.24; C -6.24; D -6.68; E -6.32; F -6.70; G -7.25; H -3.18; I -3.53; K -5.17; L -3.98; M -3.89; N -5.04; P -8.61; R -6.80; S -5.59; T -2.95; V -5.15; W -1.74; Y -6.45
D206: * -8.58; A -7.62; C -6.23; E -6.74; F -6.40; G -7.36; H -6.19; I -5.77; K -5.97; L -8.19; M -5.64; N -5.53; P -7.75; Q -6.89; R -7.77; S -7.84; T -7.30; V -7.33; W -6.56; Y -1.56
L207: * -9.43; A -7.63; C -3.92; D -6.92; E -7.24; F -7.39; G -8.02; H -6.97; I -2.81; K -7.34; M -7.04; N -7.04; P -7.89; Q -7.37; R -8.54; S -8.39; T -5.65; V -2.62; W -7.21; Y -7.02
V208: * -9.85; A -3.03; C -0.44; D -7.26; E -7.79; F -7.79; G -8.89; H -7.41; I -1.28; K -7.64; L -1.58; M -2.30; N -7.52; P -8.49; Q -7.65; R -9.18; S -9.04; T -4.06; W -7.84; Y -7.62
S209: * -8.47; A -1.09; C -0.68; D -5.62; E -6.24; F -5.67; G -6.60; H -6.40; I -5.47; K -6.72; L -7.15; M -6.25; N -5.76; P -6.03; Q -6.72; R -7.44; T -0.04; V -3.99; W -5.12; Y -5.80
Y210: * -9.25; A -7.29; C -5.95; D -6.00; E -6.86; F -6.63; G -7.47; H -5.84; I -6.89; K -7.10; L -8.04; M -6.84; N -6.70; P -7.33; Q -6.54; R -7.71; S -8.23; T -7.80; V -7.54; W -6.59
C211: * -7.81; A 0.68; D -2.04; E -3.07; F -2.94; G 0.08; H -1.25; I -2.43; K -5.13; L -1.62; M -0.53; N 0.55; P -6.75; Q -0.92; R -3.76; S -0.67; T -2.64; V -0.71; W -4.09; Y -3.16
G212: * -8.93; A -7.74; C -6.67; D -5.92; E -6.81; F -6.45; H -6.19; I -6.43; K -7.20; L -7.91; M -6.84; N -6.42; P -7.54; Q -7.11; R -8.13; S -8.07; T -7.87; V -7.98; W -7.55; Y -6.41

The last 17 entries again:

change	effect (log2)
G212D	-5.92
G212E	-6.81
G212F	-6.45
G212H	-6.19
G212I	-6.43
G212K	-7.20
G212L	-7.91
G212M	-6.84
G212N	-6.42
G212P	-7.54
G212Q	-7.11
G212R	-8.13
G212S	-8.07
G212T	-7.87
G212V	-7.98
G212W	-7.55
G212Y	-6.41

Source: Ni et al. 2025 (doi:10.1038/s41467-025-63602-z), supplementary data.